A mixed list of measured activities; the numbers were collected in NIAID ChemDB.

Shared fields: whole-cell or culture tests; species: HIV-1; read-out: fold resistance

Fold resistance has wild type as its base. Blank or dashed fields: not listed here. Conditions beyond the fields shown may differ between rows.

SMILES,mutations,method,cells,strain or isolate,value
CC(C)=CCOc1cc(NC(=S)c2ccoc2C)ccc1Cl,RT-K103N,syncytia,CEM,-,7.7
Cc1ccc(CN2CCN([C@H](C(=O)N[C@@H](Cc3ccccc3)[C@H](O)CN(CC(C)C)S(=O)(=O)c3ccc(/C=N/O)cc3)C(C)(C)C)C2=O)cn1,PR-L10F V32I M46I I47V Q68E I84V,cytopathic effect / MTT,MT-4,A17 (LPV-resistant),2
Cc1cc(S(N)(=O)=O)ccc1NC(=O)COc1ccc(Cl)cc1C(=O)c1cc(F)cc(F)c1,RT-V108I,β-galactosidase,HeLa + HELA CD4+,HXB2,~1
Cc1occc1C(=S)Nc1ccc(Cl)c(OC(=O)OC(C)C)c1,RT-E138K,syncytia,CEM,-,1.64
CCC(C)[C@@H](C(=O)N[C@@H](Cc1ccccc1)[C@H](O)CN(CC(C)C)S(=O)(=O)c1ccc(/C=N/O)cc1)N1CCN(Cc2ccc(C)nc2)C1=O,PR-L10F V32I M46I I47V Q68E I84V,cytopathic effect / MTT,MT-4,A17 (LPV-resistant),6.5
Nc1nc(=O)n([C@H]2C=C[C@@H](CO)O2)cc1F,RT-M184V,p24,MT-4,XM-M184V,1.4
Cc1ccsc1C(=S)Nc1ccc(Cl)c(C(=O)OC(C)C)c1,RT-Y181C,syncytia,CEM,-,26.7
O=C1CC(C#CC2CC2)(C(F)(F)F)c2cc(Cl)ccc2N1,RT-K103N,-,-,-,12.64
Cn1cccc1C(=S)Nc1ccc(Cl)c(/C=N/OC(C)(C)C)c1,RT-Y181C,syncytia,CEM,-,1.56
CC1=C(C(=O)Nc2cc(C(=O)OC(C)C)c(Cl)cc2F)SCCO1,RT-Y181C,syncytia,CEM,PYR-resistant (RT Y181C),>15.4
C=CCOCn1c(CC2CCCc3ccccc32)c(CC)c(=O)[nH]c1=O,RT-Y181C,cytopathic effect / MTT,MT-4,N119 RT-Y181C NNRTI-resistant,>25
COc1ccc(C(=O)CSc2nc(Cc3cccc4ccccc34)c(C)c(=O)[nH]2)cc1,RT-K103N Y181C,cytopathic effect,MT-4,SO561945,≥783.9
COCC1=C(C(=O)Nc2ccc(Cl)c(C(=O)OC(C)C)c2)SCCO1,RT-V106A,syncytia,CEM,Nevirapine-resistant (RT V106A),14.3
CCc1cc(C#N)cc(C(=O)c2cc(Cl)ccc2OCC(=O)Nc2ccc(S(N)(=O)=O)cc2C)c1,RT-P236L,β-galactosidase,HeLa + HELA CD4+,HXB2,~1
C=CCOCn1c(Cc2cccc(Cc3c(CC)c(=O)[nH]c(=O)n3COCC=C)c2)c(CC)c(=O)[nH]c1=O,RT-K103N Y181C,cytopathic effect / MTT,MT-4,RT-K103N+Y181C NNRTI-resistant,>2.9
Cc1ccccc1C(=S)Nc1ccc(Cl)c(C(=O)OC(C)C)c1,RT-L100I,syncytia,CEM,-,18.7
Cc1cc(S(N)(=O)=O)ccc1NC(=O)COc1ccc(Cl)cc1C(=O)c1cc(F)cc(C(F)(F)F)c1,RT-L100I K103N,β-galactosidase,HeLa + HELA CD4+,HXB2 (RT-K103N G100I) Recombinant,~1
Cc1ccoc1C(=S)Nc1ccc(Cl)c(C(=O)OC(C)C)c1,RT-L100I,syncytia,CEM,-,51.6
CC(C)=CCOc1cc(NC(=S)c2ccoc2C)ccc1Cl,RT-Y181C,p24,CEM + CEM-SS,NL4-3,13
COc1ccccc1C(=S)Nc1ccc(Cl)c(C(=O)OC(C)C)c1,RT-Y181C,syncytia,CEM,-,46
Cc1ccc(NC(=O)CSc2nnc(C)n2-c2c(C)cc(C)c3ccccc23)c(Cl)c1,RT-Y188L,luciferase,HeLa + HeLa-JC53,NL4-3,90
CC(=O)CSc1nc(Cc2cccc3ccccc23)c(C)c(=O)[nH]1,RT-K103N Y181C,cytopathic effect,MT-4,SO561945,≥52
CC(C)CN(C[C@@H](O)[C@H](Cc1ccccc1)NC(=O)[C@H](C(C)C)N1CC(=O)N(Cc2ccccc2)C1=O)S(=O)(=O)c1ccc(/C=N/O)cc1,PR-L10F V32I M46I I47V Q68E I84V,cytopathic effect / MTT,MT-4,A17 (LPV-resistant),16
Cc1cc(C)c2ccccc2c1-n1c(C)nnc1SCC(=O)Nc1ccccc1Br,RT-K103N Y181C,luciferase,HeLa + HeLa-JC53,NL4-3,70
CC1=C(C(=O)Nc2cc(Cl)cc(C(=O)OC(C)C)c2)SCCO1,RT-Y181C,syncytia,CEM,PYR-resistant (RT Y181C),1.1
CCc1c(Cc2cccc(Cc3nc(SC(C)C)[nH]c(=O)c3CC)c2)nc(SC(C)C)[nH]c1=O,RT-Y181C,cytopathic effect / MTT,MT-4,NNRTI-resistant,>2.5
CCN1c2ncc(CCOc3cccc4c3CNC(=O)N4C)cc2C(=O)N(C)c2cccnc21,RT-K103N Y181C,p24,C8166,-,1
CCC(CC)OC(=O)c1cc(NC(=S)c2ccoc2C)ccc1Cl,RT-E138K,syncytia,CEM,-,4.01
CCC(C)[C@@H](C(=O)N[C@@H](Cc1ccccc1)[C@H](O)CN(CC(C)C)S(=O)(=O)c1ccc(/C=N/O)cc1)N1CCN(Cc2ccccn2)C1=O,PR-L10F V32I M46I I47V Q68E I84V,cytopathic effect / MTT,MT-4,A17 (LPV-resistant),2.4
Cc1ccsc1C(=S)Nc1ccc(Cl)c(C(=O)OC2CCCCC2)c1,RT-L100I,syncytia,CEM,-,7.11
CCOCn1c(Cc2ccccc2)c(C(C)C)c(=O)[nH]c1=O,RT-Y181C,cytopathic effect / MTT,MT-4,NNRTI-resistant,666.7
CC(C)=CCOc1cc(NC(=S)c2ccsc2C)ccc1Cl,RT-E138K,syncytia,CEM,-,1.9
COc1ccc(S(=O)(=O)N(CC(C)C)C[C@@H](O)[C@H](Cc2ccccc2)NC(=O)[C@H](C(C)C)N2CC(=O)N(Cc3csc(C)n3)C2=O)cc1,PR-L10F V32I M46I I47V Q68E I84V,cytopathic effect / MTT,MT-4,A17 (LPV-resistant),15
Cc1sccc1C(=S)Nc1ccc(Cl)c(OCCC(C)C)c1,RT-K103N,syncytia,CEM,-,13.1
CCOC(=O)c1cc(NC(=O)C2=C(CC)OCCS2)ccc1Cl,RT-E138K,syncytia,CEM,TSAO-resistant (RT E138K),27.1
CCC(C)[C@@H](C(=O)N[C@@H](Cc1ccccc1)[C@H](O)CN(CC(C)C)S(=O)(=O)c1ccc(/C=N/O)cc1)N1CC(=O)N(Cc2cccnc2)C1=O,PR-L10F V32I M46I I47V Q68E I84V,cytopathic effect / MTT,MT-4,A17 (LPV-resistant),0.25
CC1=C(C(=O)Nc2cc(C(=O)OC(C)C)c(C)cc2F)SCCO1,RT-E138K,syncytia,CEM,TSAO-resistant (RT E138K),>4.35
CC(C)OC(=O)c1cc(NC(=S)c2cccs2)ccc1Cl,RT-Y181C,syncytia,CEM,-,27
Cc1nnc(SCC(=O)Nc2ccccc2Br)n1-c1cccc2cccnc12,RT-Y188L,luciferase,HeLa + HeLa-JC53,NL4-3,600
Nc1nc(NC2CC2)c2ncn([C@H]3C=C[C@@H](CO)C3)c2n1,RT-M184V,p24,MT-4,XM-M184V,5
CCOCn1c(CC2CCCc3ccccc32)c(CC)c(=O)[nH]c1=O,RT-Y181C,cytopathic effect / MTT,MT-4,N119 RT-Y181C NNRTI-resistant,>25
CCOCn1c(Cc2cccc(Cc3c(CC)c(=O)[nH]c(=O)n3COCC)c2)c(CC)c(=O)[nH]c1=O,RT-K103N Y181C,cytopathic effect / MTT,MT-4,RT-K103N+Y181C NNRTI-resistant,>7.1
CC1=C(C(=O)Nc2cccc(C(=O)OC(C)C)c2)SCCO1,RT-E138K,syncytia,CEM,TSAO-resistant (RT E138K),>2.5
C/C=C/COc1cc(NC(=S)c2ccoc2C)ccc1Cl,RT-E138K,syncytia,CEM,-,85
CCC(C)[C@@H](C(=O)N[C@@H](Cc1ccccc1)[C@H](O)CN(CC(C)C)S(=O)(=O)c1ccc(/C=N/O)cc1)N1CCN(Cc2cnccc2C)C1=O,PR-L10F V32I M46I I47V Q68E I84V,cytopathic effect / MTT,MT-4,A17 (LPV-resistant),2
Cc1occc1C(=S)Nc1ccc(Cl)c(OCC(=O)OC(C)(C)C)c1,RT-L100I,syncytia,CEM,-,2.11
Cc1cc2cn[nH]c2cc1NC(=O)COc1ccc(Cl)cc1C(=O)c1cccc(C#N)c1,RT-P225H,β-galactosidase,HeLa + HELA CD4+,HXB2,~1
CCSCC1=C(C(=O)Nc2ccc(Cl)c(C(=O)OC(C)C)c2)SCCO1,RT-E138K,syncytia,CEM,TSAO-resistant (RT E138K),1.5
C#CCO/N=C/c1cc(NC(=S)c2ccoc2C)ccc1Cl,RT-V106A,syncytia,CEM,-,13.3
CCN1c2ncc(CCOc3cccc4c3CNC(=O)N4)cc2C(=O)Nc2c(C)ccnc21,RT-K103N Y181C,p24,C8166,-,>1
Cc1ccc(-n2c(C)nnc2SCC(=O)Nc2ccccc2Br)c2ccccc12,RT-Y188L,luciferase,HeLa + HeLa-JC53,NL4-3,115
CCC(=O)Oc1ccc(NC(=O)C2=C(C)OCCS2)cc1C(=O)OC(C)C,RT-Y181C,syncytia,CEM,PYR-resistant (RT Y181C),>2.22
Cc1ccsc1C(=O)Nc1ccc(Cl)c(/C=N/OC(C)(C)C)c1,RT-V106A,syncytia,CEM,-,6.99
COC(=O)Oc1ccc(NC(=O)C2=C(C)OCCS2)cc1C(=O)OC(C)C,RT-V106A,syncytia,CEM,Nevirapine-resistant (RT V106A),>14.3
CC(C)OC(=O)c1cc(NC(=S)c2ccsc2)ccc1Cl,RT-L100I,syncytia,CEM,-,10
CC1(C)Oc2ccc3ccc(=O)oc3c2[C@@H](OC(=O)C23CCC(C)(C(=O)O2)C3(C)C)[C@H]1OC(=O)C12CCC(C)(C(=O)O1)C2(C)C,RT-M41L L74V V106A T215Y,p24,MT-4,RTMDR1,77
COc1ccccc1C(=S)Nc1ccc(Cl)c(C(=O)OC2CCCC2)c1,RT-E138K,syncytia,CEM,-,14.7
CCc1c(Cc2cccc(Cc3nc(SC)nc(OC)c3CC)c2)nc(SC)nc1OC,RT-K103N Y181C,cytopathic effect / MTT,MT-4,RT-K103N+Y181C NNRTI-resistant,>2.4
CC1=C(C(=S)Nc2ccc(Cl)c(C=NOC(C)(C)C)c2)CCCO1,RT-Y188L,syncytia,CEM,-,771
CCN1c2ncc(CCOc3cccc4c3CN(O)C4=O)cc2C(=O)N(C)c2cccnc21,RT-K103N Y181C,p24,C8166,-,>1
Cc1ccsc1C(=O)Nc1ccc(Cl)c(C(=O)OC2CCCCC2)c1,RT-E138K,syncytia,CEM,-,32.4
CCN1c2ncc(CCOc3cccc4c3CN(C)C(=O)N4C)cc2C(=O)N(C)c2cccnc21,RT-K103N Y181C,p24,C8166,-,>1

A second listing of 7 rows from above:

| SMILES | mutations | method | cells | strain or isolate | value |
|---|---|---|---|---|---|
| Nc1nc(NC2CC2)c2ncn([C@H]3C=C[C@@H](CO)C3)c2n1 | RT-M184V | p24 | MT-4 | XM-M184V | 5 |
| CC(C)OC(=O)c1cc(NC(=S)c2ccsc2)ccc1Cl | RT-L100I | syncytia | CEM | - | 10 |
| CC1=C(C(=O)Nc2cc(C(=O)OC(C)C)c(C)cc2F)SCCO1 | RT-E138K | syncytia | CEM | TSAO-resistant (RT E138K) | >4.35 |
| Cc1cc(C)c2ccccc2c1-n1c(C)nnc1SCC(=O)Nc1ccccc1Br | RT-K103N Y181C | luciferase | HeLa + HeLa-JC53 | NL4-3 | 70 |
| COc1ccc(C(=O)CSc2nc(Cc3cccc4ccccc34)c(C)c(=O)[nH]2)cc1 | RT-K103N Y181C | cytopathic effect | MT-4 | SO561945 | ≥783.9 |
| CCc1c(Cc2cccc(Cc3nc(SC(C)C)[nH]c(=O)c3CC)c2)nc(SC(C)C)[nH]c1=O | RT-Y181C | cytopathic effect / MTT | MT-4 | NNRTI-resistant | >2.5 |
| CCOCn1c(Cc2ccccc2)c(C(C)C)c(=O)[nH]c1=O | RT-Y181C | cytopathic effect / MTT | MT-4 | NNRTI-resistant | 666.7 |